Literature values, collected in publication PMC3930637.

Target: HIV-1 capsid (CA) CA (Human immunodeficiency virus 1) (UniProt O93182)
Assay: ITC

In the case of Cyclophilin A (from UniProt P62937), the Kd is given as 7 µM.
